Measurements from paper PMC9278102, “A So-Far Overlooked Secondary Conformation State in the Binding Mode of SARS-CoV-2 Spike Protein to Human ACE2 and Its Conversion Rate Are Crucial for Estimating Infectivity Efficacy of the Underlying Virus Variant” (2022).

What was measured:
[1] = target: SARS-CoV (2002) S1-S2-His trimer (SARS-CoV (2002)); experiment: SEC
[2] = target: SARS-CoV-2 B.1.1.7 S1-S2 -His-T4 trimer (SARS-CoV-2 B.1.1.7 (α-variant)); experiment: SEC

| Substance | stoichiometry N [1] | stoichiometry N [2] |
| --- | --- | --- |
| SARS-CoV (2002) S1-S2-His trimer (domain or fragment) | 3 | – |
| SARS-CoV-2 B.1.1.7 S1-S2 -His-T4 trimer (domain or fragment) | – | 3 |
